Measured values from several laboratories, pooled; numbers as filed in NIAID ChemDB.

Common to all: growth or infection tests; species: Mycobacterium tuberculosis

Blank or dashed fields: not listed here.

compound	strain or isolate	method	endpoint	tested at	value
O=C1Cc2cc(C3CCCCC3)ccc2N1CCC1CCCCC1	H37Rv		MIC		≤20 µg/mL
COc1ccc(C)cc1NCc1cnc2nc(N)nc(N)c2c1C	H37Rv		MIC		6.25 µg/mL
CSc1nc2c(c(=O)[nH]1)C1C=C(C)CCC1C(C)(C)C2	H37Rv	BACTEC	inhibition	12.5 µg/mL	0%
O=C1C(=O)N(CCCCBr)c2ccc(C3CCCCC3)cc21	H37Rv		MIC		≤20 µg/mL
Cc1cccc(-c2cs/c(=N/NC(=O)CSc3nnc(-c4ccccn4)s3)n2-c2ccccc2)c1	Clinical isolate 180		MIC		20 µg/mL
COc1ccc(N2COc3ccccc3C2)cc1		absorbance	MIC		1.65 µg/mL
O=C1C(=O)N(CCN2CCN(Cc3ccccc3)CC2)c2c1cccc2C1CCCC1	H37Rv		MIC		≤20 µg/mL
CCCCCCCCO[C@@H]1O[C@H]([C@@H](COC)O[C@H]2O[C@H](COC(=O)c3ccccc3)[C@@H](OC(=O)c3ccccc3)[C@@H]2OC(=O)c2ccccc2)[C@H](OC)[C@H]1OC	H37Ra		MIC		>128 µg/mL
O=C(O)CNC1CCS(=O)(=O)C1		broth dilution	EC50		8 µg/mL
Cc1c(CNc2cccc3c2CCCC3)cnc2nc(N)nc(N)c12	H37Ra		MIC		>64 µg/mL
C/C(=N\NC(=O)Cn1nc(N2CCN(c3ccc(F)cc3)CC2)ccc1=O)c1ccc(Br)cc1	H37Rv	agar	MIC		5 µg/mL
Cc1ccccc1NC(=O)c1c(C)n([O-])c2cc(Cl)c(Cl)cc2[n+]1=O	H37Rv		MIC		>6.25 µg/mL
S=P1(c2ccccc2)Nc2ccccc2N1C1CCCCC1	H37Rv	resazurin	MIC bound		>6.25 µg/mL
O=[N+]([O-])c1cccc(N2COc3ccccc3C2)c1		absorbance	MIC		5.5 µg/mL
COc1ccc(C(=O)N(O)CC2=C(C(=O)O)N3C(=O)[C@@H](NC(=O)Cc4ccccc4)C3SC2)cc1	H37Rv		MIC		46.2 µM
O=C(NCCCl)N1CCC(CN=c2cc3n(-c4ccc(Cl)cc4)c4ccccc4nc-3cc2Nc2ccc(Cl)cc2)CC1	CS-R		MIC		0.1 µg/mL
COc1ccc(C(=S)Nc2ccc(C3CCCCC3)cc2)cc1	H37Rv		MIC		31 µM
CCCn1c(C)nc2cc(C(F)(F)F)cc([N+](=O)[O-])c21	H37Rv	resazurin	inhibition	6.25 µg/mL	15%
S=C(Nc1ccc(C2CCCCC2)cc1)c1cccc(Br)c1	H37Rv		MIC		15 µM
CC1(C)CC(N=c2cc3n(-c4ccc(Cl)cc4Cl)c4ccccc4nc-3cc2Nc2ccc(Cl)cc2Cl)CC(C)(C)N1	H37Ra	BACTEC	EC50		<0.6 µg/mL
CCCCCCCCN1C(=O)C(=O)c2cccc(-c3ccccc3)c21	H37Ra		MIC		≤20 µg/mL
Cc1sccc1C(=S)Nc1ccc(Cl)c(/C=N/OC(C)(C)C)c1	H37Rv	BACTEC	inhibition	12.5 µg/mL	99%
CO[C@H]1/C=C/O[C@@]2(C)Oc3c(C)c(O)c4c(O)c(c(/C=N/N5CCN(C)CC5)c(O)c4c3C2=O)NC(=O)/C(C)=C\C=C\[C@H](C)[C@H](O)[C@@H](C)[C@@H](O)[C@@H](C)[C@H](OC(C)=O)[C@@H]1C		absorbance	MIC		0.9 µg/mL
COc1ccccc1N1CCN(C(=O)c2c(C)n([O-])c3cc(Cl)c(Cl)cc3[n+]2=O)CC1	H37Rv		MIC		>6.25 µg/mL
COC(=O)C1c2ccc(OC)c(OC)c2C(=O)N2CCc3cc(OC)c(OC)cc3C12	H37Rv	resazurin	inhibition	6.25 µg/mL	-2%
COc1cc(OC)cc(N(C)Cc2cnc3nc(N)nc(N)c3c2C)c1	H37Rv		MIC		3.13 µg/mL
Cc1ccccc1-c1cs/c(=N/NC(=O)CSc2nnc(-c3ccccn3)s2)n1-c1ccccc1	Clinical isolate 331		MIC		80 µg/mL
Cc1cc2c(cc1C)[n+](=O)c(C(=O)N1CCN(Cc3ccccc3)CC1)c(C)n2[O-]	H37Rv		MIC		>6.25 µg/mL
COc1ccc(N/C=C2\C(=O)CCc3c2oc2cc(Cl)c(O)c(Cl)c32)cc1	H37Rv	BACTEC	MIC		≥12.5 µg/mL
COc1c(O)cc2oc(-c3ccc(O)cc3)cc(=O)c2c1O	H37Rv	BACTEC	MIC		100 µg/mL
C=C[C@]1(C)C=C2C(=C)C3(C)OC[C@@]4(CCCC(C)(C)C34)[C@@]2(O)[C@H](O)C1		broth dilution	MIC90		3.1 µg/mL
COc1cc(-c2oc3cc(OC)c(OC)c(O)c3c(=O)c2OC)ccc1O	H37Rv	BACTEC	MIC		>100 µg/mL
COC1=C(C(C)C)C(=O)C2=C(C1=O)C1(C)CCCC(C)(C)C1=CC2OC(C)=O		broth dilution	MIC90		0.98 µg/mL
Nc1nnc2nc(C(C(=O)c3ccc(Cl)cc3Cl)c3nc4nnc(N)n4[nH]c3=O)c(=O)[nH]n12	H37Rv	BACTEC	inhibition	12.5 µg/mL	11%
CCCCN1C(=O)C(=O)c2cccc(-c3ccccc3)c21	H37Rv		MIC		≤20 µg/mL
Cc1ccc(C(=O)N(O)CC2=C(C(=O)O)N3C(=O)[C@@H](NC(=O)Cc4ccccc4)C3SC2)cc1	H37Rv		MIC		26.7 µM
CCCCCCCN1C(=O)C(=O)c2cccc(-c3ccccc3)c21	H37Rv		MIC		≤20 µg/mL
Cc1ccccc1N1COc2ccccc2C1		absorbance	MIC		6.1 µg/mL
C/C(=N\NC(=O)Cn1nc(N2CCN(c3ccccc3)CC2)ccc1=O)c1ccc(Cl)cc1	H37Rv	agar	MIC		40 µg/mL
Cc1ccc2c(c1)[n+](=O)c(C(=O)N1CCN(c3ccc([N+](=O)[O-])cc3)CC1)c(C)n2[O-]	H37Rv		MIC		>6.25 µg/mL
S=C(Nc1ccc(Cl)c(Cl)c1)c1ccc(Cl)cc1	H37Rv		MIC		15 µM
CC(C)CN1C(=O)C(=O)c2cccc(-c3ccccc3)c21	H37Ra		MIC		≤20 µg/mL
C=C(C)[C@@H]1CC[C@]2(C)CC[C@]3(C)[C@H](CC[C@@H]4[C@@]5(C)CC[C@@H](O)C(C)(C)[C@@H]5CC[C@]43C)[C@@H]12	H37Rv	resazurin	MIC90		>20 µg/mL
O=C(Cc1ccccc1)N[C@@H]1C(=O)N2C3=C(CSC12)CN(C(=O)c1ccc(F)cc1)OC3=O	H37Rv		MIC		15.3 µM
COc1ccc(N2COc3ccc(OC)cc3C2)cc1		absorbance	MIC		5.18 µg/mL
C[C@@H]1O[C@@H](OC[C@H]2O[C@@H](Oc3c(-c4ccc(O)c(O)c4)oc4cc(O)cc(O)c4c3=O)[C@H](O)[C@@H](O)[C@@H]2O)[C@H](O)[C@H](O)[C@H]1O	H37Rv	BACTEC	MIC		>100 µg/mL
O=C(Cc1ccccc1)N[C@@H]1C(=O)N2C3=C(CSC12)CN(C(=O)c1ccccc1)OC3=O	H37Rv		MIC		>128 µM
Cc1cc2c(cc1C)NC1=C(N2)OC(c2ccc(C3OC4=C(Nc5cc(C)c(C)cc5N4)C3=O)cc2)C1=O	H37Rv	BACTEC	MIC bound		>12.5 µg/mL
C=C(C[C@@H]1C(=C)CC[C@@H]2[C@@]3(C)CCC[C@@]12C(=O)OC3)c1ccoc1	H37Ra		MIC		100 µg/mL
Cc1ccc2c(c1)[n+](=O)c(C(=O)Nc1ccccc1)c(C)n2[O-]	H37Rv		inhibition	6.25 µg/mL	62%
S=C(Nc1ccc(Br)cc1)c1ccccc1	H37Rv		MIC		15 µM
Cc1c(NC(=O)CSC(=S)N(C)C)c(=O)n(-c2ccccc2)n1C	H37Rv	BACTEC	inhibition	12.5 µg/mL	4%
O=C(CSc1nnc(-c2ccccn2)s1)N/N=c1/scc(-c2cccc([N+](=O)[O-])c2)n1-c1ccccc1	H37Rv		MIC		40 µg/mL
CC[C@@H](CO)NCCN[C@@H](CC)CO		absorbance	MIC		1.8 µg/mL
CCOC(=O)C1=C(C)NC(=O)NC1c1ccc([N+](=O)[O-])s1	H37Rv	resazurin	inhibition	6.25 µg/mL	5%
COC(=O)C1=C2Nc3ccccc3[C@@]23CCN2C[C@]4(CC5C[C@]67CC(=O)O[C@H]6CCN6CC[C@@H](C67)[C@@]5(O)N(c5ccccc5OC)C4)[C@@H]4OCC[C@]4(C1)C23	H37Rv	resazurin	MIC90		>50 µg/mL
O=C(CSc1nnc(-c2ccccn2)s1)N/N=c1/scc(-c2ccccc2)n1-c1cccc([N+](=O)[O-])c1	Clinical isolate 180		MIC		80 µg/mL
CC[C@H](/C=C/[C@@H](C)[C@H]1CC[C@H]2[C@@H]3C(=O)C=C4C[C@@H](O)CC[C@]4(C)[C@H]3CC[C@]12C)C(C)C		broth dilution	MIC90		2.3 µg/mL
C/C(=N\NC(=O)Cn1nc(N2CCN(c3ccccc3)CC2)ccc1=O)c1ccccc1	H37Rv	agar	MIC		20 µg/mL
CN[C@@H]1[C@@H](O)C(O[C@@H]2[C@@H](O)[C@H](OC3O[C@H](CN)[C@@H](O)[C@H](O)[C@H]3O)[C@@H](N)C[C@H]2NC(=O)[C@@H](O)CN)OC[C@]1(C)O	T45		MIC		1.56 µg/mL
Cc1ccc(NCCN(C)C)c2c(=O)c3ccc(O)cc3sc12	H37Rv	BACTEC	inhibition	12.5 µg/mL	99%
CCC[C@@H](O)C1=C[C@@H](OC(C)C)O[C@H](COC(=O)C(C)(C)C)C1=O		broth dilution	MIC90		73 µg/mL
Cc1c(C(=O)NC(C)(C)C)[n+](=O)c2ccccc2n1[O-]	H37Rv		inhibition	6.25 µg/mL	10%
Cc1nnc2n(N)c(=O)c(CC(=O)c3ccc(F)cc3)nn12	H37Rv	BACTEC	inhibition	12.5 µg/mL	5%
CCCCCCCCCCCN1C(=O)C(=O)c2cccc(-c3ccccc3)c21	H37Ra		MIC		≤20 µg/mL
Cc1ccccc1-n1c(-c2ccccc2)cs/c1=N/NC(=O)CSc1nnc(-c2ccccn2)s1	Clinical isolate 180		MIC		>80 µg/mL
Nc1c(-c2c(Cl)cccc2Cl)[n+]([O-])c2ccccc2[n+]1[O-]	ETA-R		MIC		3.1 µg/mL
C/C(=N\NC(=O)Cn1nc(N2CCN(c3ccc(Cl)cc3)CC2)ccc1=O)c1ccc(Br)cc1	H37Rv	agar	MIC		40 µg/mL
NC(=O)C(=O)N/N=C(\CC1(O)C(=O)Nc2ccccc21)c1ccc2ccccc2c1	H37Rv	BACTEC	MIC bound		>12.5 µg/mL
O=C1c2ccc(N3CCCCC3)cc2-n2c1nc1ccncc1c2=O	H37Rv	resazurin	MIC		>4 µg/mL
Cc1c([N+](=O)[O-])oc2cc3c(cc12)CCCC3	H37Rv	resazurin	inhibition	6.25 µg/mL	66%
COc1ccc(C)c(NCc2cnc3nc(N)nc(N)c3c2C)c1	H37Rv		MIC		6.25 µg/mL
COc1ccc2c(c1)CN(c1ccccc1[N+](=O)[O-])CO2		absorbance	MIC		5.6 µg/mL
CC1(C)N=c2cc3c(cc2N1c1ccc(Cl)cc1)=Nc1ccccc1N3c1ccc(Cl)cc1	INH-r		MIC		0.8 µg/mL
O=C(O)C(CCC1CCCCC1)C(=O)O		broth dilution	MIC90		14.7 µg/mL
Cc1c(C(=O)NC(C)(C)C)[n+](=O)c2cc(Cl)ccc2n1[O-]	H37Rv		MIC		>6.25 µg/mL
CC1=NN(c2ccccc2)C(=O)C1N=Nc1ccc(S(=O)(=O)Nc2nnc(C)s2)cc1	H37Rv	BACTEC	inhibition	12.5 µg/mL	98%
O=c1cc(-c2ccccc2)oc2cc(O)c(O)c(O)c12	H37Rv	BACTEC	MIC		50 µg/mL
O=c1c2cnc3c4cccnc4ccc3c2[nH]n1-c1ccccc1	H37Rv	BACTEC	MIC		≥12.5 µg/mL
S=C(Nc1ccc(Cl)cc1)c1cccc(Br)c1	H37Rv		MIC		31 µM
O=C1CN(/N=C/c2ccc(-c3ccc(F)cc3)o2)C(=O)N1	H37Rv	BACTEC	inhibition	12.5 µg/mL	27%
Cc1cc2c(cc1C)[n+](=O)c(C(=O)N1CCN(c3ccccc3)CC1)c(C)n2[O-]	H37Rv		MIC		>6.25 µg/mL

ECn: concentration that inhibits the pathogen or its effect by n%. A number after MIC or MFC names an inhibition level or a share of isolates. Percent inhibition refers to the dose given; in toxicity tests it is the harm to the cells. Lines come from different laboratories, so protocols vary. MIC bound comes from a single tested concentration.